# In PubChem BioAssay AID602276 (University of Pittsburgh Molecular Library Screening Center, 2012):
# The list shows a part of the results, in another mix than the full data. Calls of active or inactive are those of the source.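 Rule for the calls: active = inhibition at or above 50% at 10 µM; inactive = inhibition below 50%.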
# Experiment: inhibitors of Sendai virus-induced IRF3 signaling, primary screen, TLR/RLR signaling modifier project, cell-based, Sendai virus stimulus, luciferase, 10K MLSCN set (AID 602276);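 note: firefly luciferase from ISG56 promoter only with Renilla not read in this screen; 0% = Sendai virus plus DMSO and 100% = medium plus DMSO without virus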
# Settings: HEK293 RL24 IRF3 luciferase reporter, at 10 µM, active compounds read high
row,Structure (SMILES),inhibition
1,Fc1ccccc1NC1CCN(Cc2ccccc2)CC1,inactive: 19.8%
